Results of unrelated studies side by side (data: NIAID ChemDB).

Shared fields: enzyme or target tests; agent: HIV-1; protein: Integrase; method: strand transfer; read-out: IC50

ICn is the concentration giving n% inhibition. Two numbers with a dash give a range or band. An empty or dashed field is not shown. Lines come from different laboratories, so protocols vary.

| SMILES | changes | value |
|---|---|---|
| NC(=O)c1cc(F)ccc1CNC(=O)c1nc(N2CCCCS2(=O)=O)c2cccnc2c1O | - | <0.5 µM |
| O=C1c2c(O)c(=O)n(C3CCCCC3)c(=O)n2CCN1Cc1ccc(F)cc1 | - | <10 µM |
| CCN(CC)C(=O)c1c2c(c(O)c(=O)n1C)C(=O)N(Cc1ccc(F)cc1)CC2 | - | <1 µM |
| CN1CCc2c(c(O)c3n2CCN(Cc2ccc(F)cc2)C3=O)C1=O | - | <1 µM |
| CCOC(=O)/C(O)=C(\C#N)c1cn(CC)c2ccccc12 | - | 225 µM |
| CN(c1[nH]c(=O)c(O)c2c1CCN(Cc1ccc(F)cc1)C2=O)S(C)(=O)=O | - | <1 µM |
| CC1=C(C#N)c2nc(N)c(C#N)c(C)c2/C1=C/c1ccc(-c2ccc(O)c(C(=O)O)c2)o1 | - | 4 µM |
| COc1cc(O)c2c(c1)C(=O)C(C)=C(c1c(OC)cc3cc4cc(C)oc(=O)c4c(O)c3c1O)C2=O | - | >100 µM |
| C=C(C=O)[C@@H]1C[C@@]2(C)C(=CC1=O)[C@H](OC(=O)/C(C)=C\C(C)CCCC)CC[C@@H]2C(=O)O | - | 10 µM |
| O=[N+]([O-])c1ccc(CSc2nc3ccccc3s2)cc1 | - | >1000 µM |
| CCn1cc(/C(O)=C/C(=O)C(=O)O)c2ccccc21 | - | 3 µM |
| Cn1c(=O)c(O)c2n(c1=O)CCN(Cc1ccc(F)cc1)C2=O | - | <10 µM |
| CC(C)(C)c1nc(C(=O)NCc2ccc(F)cc2)c(O)c(=O)n1CCCNS(=O)(=O)c1ccccc1 | - | 20 µM |
| CON(C)CCC1CN(Cc2ccc(F)cc2)C(=O)c2c(O)c(=O)n(C(C)C)c(=O)n21 | - | <10 µM |
| O=C(/C=C(\O)C(=O)O)NC(c1ccc(Cl)cc1)c1ccc(Cl)cc1 | - | <70 µM |
| O=C1C(=O)N(Cc2ccccc2[N+](=O)[O-])c2ccccc21 | - | 600 µM |
| CC(C)c1cn2c(=O)c(O)c(C(=O)NCc3ccc(Cl)c(Cl)c3)nc2s1 | - | 0.001–1 µM |
| O=C(O)C(=O)c1c(O)[nH]c2ccccc12 | - | 600 µM |
| O=C(NCCCN1CCN(C(=O)/C=C/c2ccccc2)CC1)c1cc(O)c(O)c(O)c1 | - | 12.38 µM |
| Cc1cn2c(=O)c(O)c(-c3ncc(Cc4ccc(Cl)c(Cl)c4)s3)nc2s1 | E92Q/N155H | 1–10 µM |
| O=C1c2c(O)c(=O)n(C3CCCCC3N3CCOCC3)c(=O)n2CCN1Cc1ccc(F)cc1 | - | <10 µM |
| Cc1cn2c(=O)c(O)c(-c3ncc(Cc4ccc(F)c(Cl)c4)s3)nc2s1 | - | 0.001–1 µM |
| COc1ccc(C(c2ccc(OC)cc2)N(C)C(=O)/C=C(\O)C(=O)O)cc1 | - | <70 µM |
| CCOC(=O)c1cn(C)c2cc(N3CCN(c4ccccn4)CC3)c(N)cc2c1=O | - | >100 µM |
| CC(C)(CN1CCOCC1)Cn1c(=O)c(O)c2n(c1=O)CCN(Cc1ccc(F)cc1)C2=O | - | <10 µM |
| O=C(/C=C(\O)C(=O)O)/C=C(\O)c1ccccc1Cl | - | 220 µM |
| Cn1c(=O)c(C(=O)NCc2ccc(F)cc2)c(O)c2nc(Cc3ccc(F)cc3)sc21 | - | >151 µM |
| O=C1C(=O)N(Cc2ccccc2Cl)c2ccccc21 | - | 600 µM |
| CNC(=O)c1ccccc1CNC(=O)c1nc(N2CCCCS2(=O)=O)c2cccnc2c1O | - | <0.5 µM |
| O=C(O)/C(O)=C/C(=O)N(CCc1ccncc1)Cc1ccc(F)cc1 | - | <70 µM |
| O=C(NCc1ccc(Cl)c(Cl)c1)c1nc2sc(CN3CCOCC3)cn2c(=O)c1O | - | 0.001–1 µM |
| C=CCC(C(=O)O)c1c(-c2ccccc2)c2cc(Cl)ccc2[nH]c1=O | - | >250 µM |
| Cc1cn2c(=O)c(O)c(-c3ncc(Cc4ccc(F)cc4)s3)nc2s1 | - | <0.001 µM |
| O=C(NC1CCC1)c1[nH]c(=O)c(O)c2c1CCN(Cc1ccc(F)cc1)C2=O | - | <1 µM |
| C=CCOc1ccc(C[C@H](NC(=O)c2ccccc2OCc2ccccc2)C(=O)N[C@@H](CCCCN)C(=O)NCCCC(=O)OC)cc1 | - | 5 µM |
| CC(C)Cn1c(C(=O)N(C)C)c2c(c(O)c1=O)C(=O)N(Cc1ccc(F)c(Cl)c1)CC2 | - | <1 µM |
| COC(=O)c1cc(-c2cn(Cc3ccccc3)c3ccccc23)on1 | - | >1000 µM |
| CC(c1cccc2ccccc12)n1c(=O)c(O)c2n(c1=O)CCN(Cc1ccc(F)cc1)C2=O | - | <10 µM |
| O=C(O)/C(O)=C/C(=O)N(Cc1ccc(F)cc1)c1ccc(F)cc1 | - | <70 µM |
| CN(C)C(=O)c1cc(F)ccc1CNC(=O)c1nc(N(C)S(C)(=O)=O)c2cccnc2c1O | - | <0.5 µM |
| Cc1cc(=O)n(-c2ccc(Br)cc2F)n1C(=O)c1ccco1 | - | >1000 µM |
| O=C(O)c1cc(-c2cn(Cc3ccccc3)c3ccccc23)on1 | - | 200 µM |
| O=S(=O)(Nc1ccc(F)c(Cl)c1)c1cccc2cnccc12 | - | 850 µM |
| C=CCOc1ccc(C[C@H](NC(C)=O)C(=O)N[C@@H](CCCCN)C(=O)NCCCCC(=O)OC)cc1 | - | 9 µM |
| c1cnc2c(CSc3nc4ccccc4s3)cccc2c1 | - | >1000 µM |
| CC(C)n1c(C(=O)N(C)C)c2c(c(O)c1=O)C(=O)N(Cc1ccc(F)c(Cl)c1)CC2 | - | <1 µM |

The first 2 rows once more:

NC(=O)c1cc(F)ccc1CNC(=O)c1nc(N2CCCCS2(=O)=O)c2cccnc2c1O ; value: <0.5 µM
O=C1c2c(O)c(=O)n(C3CCCCC3)c(=O)n2CCN1Cc1ccc(F)cc1 ; value: <10 µM